Potato spindle tuber viroid, loop 15: variant abundance in plants

From the data files of Wu et al. 2024, doi:10.1371/journal.ppat.1012142.

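Three N. benthamiana plants were inoculated with the whole mutant pool. Progeny were sequenced from the inoculated region (day 5), the margin of the inoculated leaf (day 10) and systemic leaves (day 12).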

The pool varies loop 15 of the PSTVd intermediate strain in the pattern GGAAACCGNNNNNNC; wild type is GGAAACCGCUACUAC (upper and lower strand joined, each 5' to 3', the first 7 letters being the upper strand, closing pairs included).

Numbers give reads per thousand; 0 = not seen among the reads, higher = more abundant.
Each site shows the three plants.
"Pool" is the share in the plasmid pool used as inoculum, on the same scale.
The inoculated region was read from the minus strand, the other sites from the plus strand.
IR is the inoculated region, LM the leaf margin, Sys the systemic leaves.
Wild type was 33.9 per thousand in the pool and the most common sequence in every sample (inoculated region 202, 200, 159; leaf margin 724, 746, 710; systemic leaves 856, 883, 880).

sequence,pool,IR,LM,Sys
GGAAACCGUCUAGAC,0.176,0.0655 0.129 0.133,0 0.0223 0,0 0 0
GGAAACCGUCUAGCC,0.192,0.0491 0.0482 0.0571,0 0 0.0200,0 0 0
GGAAACCGUCUAGGC,0.256,0.197 0.161 0.171,0.0162 0 0.0200,0.0322 0.0151 0
GGAAACCGUCUAGUC,0.0960,0.147 0.145 0.0381,0 0 0,0 0 0
GGAAACCGUCUAUAC,0.240,0.311 0.289 0.343,0.178 0.0668 0.200,0.0322 0.0908 0.0228
GGAAACCGUCUAUCC,0.256,0.0819 0.0482 0.152,0 0 0.0200,0 0 0
GGAAACCGUCUAUGC,0.176,0.115 0.0321 0.0571,0.0162 0.0445 0.0200,0 0 0
GGAAACCGUCUAUUC,0.352,0.295 0.402 0.133,0.0647 0.0668 0.0801,0.0161 0 0
GGAAACCGUCUCAAC,0.192,0.0819 0.0482 0.0571,0 0 0,0 0 0
GGAAACCGUCUCACC,0.288,0.115 0.112 0.0190,0 0 0,0.0161 0 0
GGAAACCGUCUCAGC,0.288,0.0819 0.112 0.133,0 0 0,0 0 0
GGAAACCGUCUCAUC,0.256,0.147 0.145 0.0190,0 0 0,0 0 0
GGAAACCGUCUCCAC,0.112,0.0491 0.0803 0.0762,0.0162 0 0,0 0 0
GGAAACCGUCUCCCC,0.208,0.0655 0.0643 0.0571,0 0 0,0 0 0
GGAAACCGUCUCCGC,0.240,0.131 0.0321 0.0762,0.0485 0 0,0 0 0
GGAAACCGUCUCCUC,0.288,0.197 0.129 0.0952,0 0 0.0200,0.0322 0 0
GGAAACCGUCUCGAC,0.224,0.0491 0.0482 0.0381,0.0162 0.0223 0.0200,0 0 0
GGAAACCGUCUCGCC,0.208,0.164 0.0964 0.133,0.0162 0 0,0 0 0
GGAAACCGUCUCGGC,0.288,0.164 0.112 0.0952,0.0647 0.0223 0,0.0161 0 0
GGAAACCGUCUCGUC,0.304,0.0328 0.145 0.114,0.0323 0.0223 0.0401,0.0161 0 0
GGAAACCGUCUCUAC,0.240,0.229 0.353 0.438,0.162 0.0445 0.301,0.0322 0 0
GGAAACCGUCUCUCC,0.192,0.115 0.0964 0.0762,0.0323 0 0,0.0161 0 0
GGAAACCGUCUCUGC,0.304,0.147 0.129 0.0952,1.15 0 0,0 0 0
GGAAACCGUCUCUUC,0.256,0.0983 0.112 0.0381,0 0.0223 0,0 0.0151 0
GGAAACCGUCUGAAC,0.304,0.213 0.225 0.152,0.0162 0.0445 0,0.0161 0 0
GGAAACCGUCUGACC,0.224,0.115 0.177 0.133,0.0323 0 0.0200,0 0 0
GGAAACCGUCUGAGC,0.352,0.115 0.0321 0.0190,0.0162 0.0445 0.0200,0 0 0
GGAAACCGUCUGAUC,0.176,0.0819 0.0964 0.133,0 0 0.0200,0.0161 0 0
GGAAACCGUCUGCAC,0.240,0.131 0.112 0.0381,0 0 0,0 0 0
GGAAACCGUCUGCCC,0.352,0.115 0.0482 0.0571,0 0.0668 0.0200,0 0 0
GGAAACCGUCUGCGC,0.272,0.0491 0.112 0.133,0 0.0223 0,0 0 0
GGAAACCGUCUGCUC,0.144,0.0655 0.0321 0.171,0 0 0.0200,0 0 0
GGAAACCGUCUGGAC,0.144,0.278 0.321 0.209,0.0162 0 0.0200,0.0161 0 0
GGAAACCGUCUGGCC,0.160,0.147 0.112 0.0952,0.0162 0.0223 0,0 0 0
GGAAACCGUCUGGGC,0.224,0.115 0.0964 0.0952,0.0162 0 0,0 0 0
GGAAACCGUCUGGUC,0.272,0.377 0.305 0.190,1.02 0.0223 0,0.0161 0 0
GGAAACCGUCUGUAC,0.192,0.328 0.257 0.248,0.162 0.0668 0.200,0.0161 0.0605 0
GGAAACCGUCUGUCC,0.400,0.0819 0.129 0.152,0.0162 0.0223 0.0200,0 0 0
GGAAACCGUCUGUGC,0.176,0.491 0.402 0.362,0.0647 0.134 0.0801,0.0322 0 0
GGAAACCGUCUGUUC,0.144,0.229 0.209 0.286,0.146 0.0445 0.160,0.0483 0.136 0.0912
GGAAACCGUCUUAAC,0.272,0.147 0.177 0.133,0 0 0.0200,0.0483 0 0
GGAAACCGUCUUACC,0.112,0.147 0.0643 0.0381,0.0162 0 0,0 0 0
GGAAACCGUCUUAGC,0.272,0.115 0.0803 0.133,0 0 0.0401,0 0 0
GGAAACCGUCUUAUC,0.192,0.393 0.482 0.362,0.0162 0.0223 0,0.0161 0.0151 1.30
GGAAACCGUCUUCAC,0.224,0.115 0.161 0.114,0 0 0,0 0.0151 0
GGAAACCGUCUUCCC,0.176,0.0655 0.0803 0.0952,0 0 0.0200,0 0 0
GGAAACCGUCUUCGC,0.208,0.0655 0.112 0.0762,0 0.0445 0,0.0161 0 0
GGAAACCGUCUUCUC,0.192,0.164 0.193 0.228,0.0323 0.0223 0,0.0322 0 0
GGAAACCGUCUUGAC,0.256,0.0328 0.0321 0.133,0 0 0,0 0 0

The opening 5 entries, copied out:

| sequence | pool | IR | LM | Sys |
|---|---|---|---|---|
| GGAAACCGUCUAGAC | 0.176 | 0.0655 0.129 0.133 | 0 0.0223 0 | 0 0 0 |
| GGAAACCGUCUAGCC | 0.192 | 0.0491 0.0482 0.0571 | 0 0 0.0200 | 0 0 0 |
| GGAAACCGUCUAGGC | 0.256 | 0.197 0.161 0.171 | 0.0162 0 0.0200 | 0.0322 0.0151 0 |
| GGAAACCGUCUAGUC | 0.0960 | 0.147 0.145 0.0381 | 0 0 0 | 0 0 0 |
| GGAAACCGUCUAUAC | 0.240 | 0.311 0.289 0.343 | 0.178 0.0668 0.200 | 0.0322 0.0908 0.0228 |

Samples held 43,870 to 66,106 reads, so the smallest values rest on one or two reads.
Sequences that differ at fixed positions probably stem from PCR or sequencing errors, and defective variants can be carried along by functional ones.